Common to all, as to conditions: HL-60
Experiment [1] concerns the target T1, Thioredoxin reductase (Homo sapiens) (UniProt Q16881+Q9NNW7+Q86VQ6). The experiment can be described thus: Inhibition of TrxR in human HL60 cells assessed as cell death after 48 hrs by trypan blue exclusion assay in presence of vitamin C antioxidant.
Experiment [2] deals with T1, Thioredoxin reductase (Homo sapiens). The experiment in a line: Inhibition of TrxR in human HL60 cells assessed as cell death after 48 hrs by trypan blue exclusion assay in presence of vitamin E antioxidant.
For experiment [3] the target is unchanged. The experiment in a line: Inhibition of TrxR in human HL60 cells assessed as cell death after 48 hrs by trypan blue exclusion assay in presence of 0.1 to 2 mM NAC thiol antioxidant.

The chains behind the UniProt entries cited, without tags or fusion partners.
UniProt Q16881, whole entry, looked up: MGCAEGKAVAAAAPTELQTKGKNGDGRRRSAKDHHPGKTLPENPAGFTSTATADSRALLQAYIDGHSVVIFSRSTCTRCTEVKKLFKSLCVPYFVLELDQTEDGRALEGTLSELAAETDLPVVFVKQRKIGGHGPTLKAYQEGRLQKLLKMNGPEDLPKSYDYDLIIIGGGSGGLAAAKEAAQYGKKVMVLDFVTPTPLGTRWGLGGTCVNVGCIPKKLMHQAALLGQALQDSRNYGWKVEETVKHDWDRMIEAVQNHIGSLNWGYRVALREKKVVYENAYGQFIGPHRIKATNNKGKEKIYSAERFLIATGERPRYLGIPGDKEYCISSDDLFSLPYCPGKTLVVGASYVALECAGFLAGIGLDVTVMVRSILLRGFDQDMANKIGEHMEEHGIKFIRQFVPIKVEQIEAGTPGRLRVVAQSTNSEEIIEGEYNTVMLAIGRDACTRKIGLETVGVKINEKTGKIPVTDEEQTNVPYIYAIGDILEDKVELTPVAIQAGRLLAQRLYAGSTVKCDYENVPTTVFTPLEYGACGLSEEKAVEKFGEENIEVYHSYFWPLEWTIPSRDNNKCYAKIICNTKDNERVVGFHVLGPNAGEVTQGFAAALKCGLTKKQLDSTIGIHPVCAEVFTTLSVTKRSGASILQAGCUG
UniProt Q9NNW7, whole entry, looked up: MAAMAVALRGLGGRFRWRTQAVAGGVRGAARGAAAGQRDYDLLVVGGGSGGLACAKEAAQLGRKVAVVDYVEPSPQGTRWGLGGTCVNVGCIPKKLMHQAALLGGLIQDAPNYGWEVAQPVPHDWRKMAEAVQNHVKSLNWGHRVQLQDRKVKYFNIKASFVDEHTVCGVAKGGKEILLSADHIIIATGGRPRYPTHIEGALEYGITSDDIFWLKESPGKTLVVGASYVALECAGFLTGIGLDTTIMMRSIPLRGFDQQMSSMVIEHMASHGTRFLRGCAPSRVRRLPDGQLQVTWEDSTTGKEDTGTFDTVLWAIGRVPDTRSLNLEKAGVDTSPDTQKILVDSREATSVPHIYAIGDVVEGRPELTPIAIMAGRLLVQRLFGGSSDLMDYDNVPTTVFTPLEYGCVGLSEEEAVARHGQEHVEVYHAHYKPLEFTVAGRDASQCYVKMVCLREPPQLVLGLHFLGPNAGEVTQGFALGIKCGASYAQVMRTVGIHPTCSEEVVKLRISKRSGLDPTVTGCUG
UniProt Q86VQ6, whole entry, looked up: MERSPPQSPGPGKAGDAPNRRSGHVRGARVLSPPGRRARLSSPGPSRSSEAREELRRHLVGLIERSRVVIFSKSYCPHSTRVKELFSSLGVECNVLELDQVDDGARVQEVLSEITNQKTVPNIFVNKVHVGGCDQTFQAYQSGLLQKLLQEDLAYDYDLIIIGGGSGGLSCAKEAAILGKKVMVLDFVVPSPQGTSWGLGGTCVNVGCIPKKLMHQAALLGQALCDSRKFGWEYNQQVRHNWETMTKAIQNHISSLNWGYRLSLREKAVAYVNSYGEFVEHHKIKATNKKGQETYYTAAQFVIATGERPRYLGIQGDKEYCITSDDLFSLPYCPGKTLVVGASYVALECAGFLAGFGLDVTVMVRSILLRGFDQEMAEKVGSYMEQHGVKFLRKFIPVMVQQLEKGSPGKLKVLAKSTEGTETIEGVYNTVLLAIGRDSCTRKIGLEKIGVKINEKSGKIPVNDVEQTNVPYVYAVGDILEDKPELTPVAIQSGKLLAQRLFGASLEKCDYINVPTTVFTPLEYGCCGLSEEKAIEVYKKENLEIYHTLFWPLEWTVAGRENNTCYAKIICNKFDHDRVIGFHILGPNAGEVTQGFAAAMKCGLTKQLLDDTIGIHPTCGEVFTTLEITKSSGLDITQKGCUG

The text below walks through data of ChEMBL document CHEMBL3286196 (J Med Chem, 2014).

The source made the active and inactive calls. The calls are words filed in the database; no cut-off is given here.

Regarding `Nc1ccc([As]2SCCCS2)cc1`, the inhibition result in experiment [1] and in experiment [2] was “Active” throughout. Also, in experiment [3], the inhibition entry is “inactive”.
